Test results: US20260382574A1, “CRYSTAL OF SPIRO COMPOUND AND PREPARATION METHOD THEREFOR” (published 2026)

Test: Body weight / toxicity in infected K18-hACE2 transgenic mice
Details: 50 and 200 mg/kg + ritonavir, 4 days after infection; model group reduced by about 10%

CC(C)(C)[C@H](NC(=O)C(F)(F)F)C(=O)N1CC2(C[C@H]1C(=O)N[C@H](C#N)C[C@@H]1CCNC1=O)SCCS2
body weight: not significantly reduced
